Measured values from several laboratories, pooled; numbers as filed in NIAID ChemDB.

Common to all: whole-cell or culture tests; species: Herpes simplex virus 2; method: cytopathic effect; endpoint: EC50

Rows are shuffled and stem from different studies. ECn: concentration that inhibits the pathogen or its effect by n%.

structure,strain,cells,result
Nc1nc(N)c2ncn(CCOCP(=O)(O)O)c2n1,HS-44,HEL,7.3 µg/mL
O=C(O)P(=O)(O)O,TK-,VERO,>79.4 µM
Nc1ccn(C[C@@H](CO)OCP(=O)(O)O)c(=O)n1,PCV-resistant/B,HEL,0.042 µg/mL
O=C(O)P(=O)(O)O,HS-47,HEL,21.3 µg/mL
Nc1ncnc2c1ncn2C[C@H](O)CO,196,PRK,>100 µg/mL
O=c1[nH]c(=O)n([C@H]2C[C@H](O)[C@@H](CO)S2)cc1C1CCC1,G 196 LYONS,E6SM,53 µM
CCOC(=O)P(=O)(OC)OC[C@H]1O[C@@H](n2cc(I)c(=O)[nH]c2=O)C[C@@H]1O,K979,VERO,>5.9 µM
Cc1cn([C@H]2C[C@H](O)[C@@H](CO)O2)c(=O)[nH]c1=O,G 196 LYONS,E6SM,>2000 µM
NC(=O)c1cn([C@@H]2O[C@H](CO)C[C@H]2O)c2ncnc(N)c12,G,PRK,≥10 µg/mL
O=c1[nH]c(=O)n([C@H]2C[C@H](O)[C@@H](CO)S2)cc1C1CCCC1,G 196 LYONS,E6SM,676 µM
Cc1cn([C@@H]2O[C@H](CO)[C@@H](O)[C@@H]2O)c(=O)[nH]c1=O,HS-44,HEL,>20 µg/mL
NC(=O)c1c[se]c([C@@H]2O[C@H](CO)[C@@H](O)[C@H]2O)n1,MS,HeLa,4 µg/mL
Nc1ncnc2c1ccn2[C@@H]1O[C@H](CO)[C@@H](O)[C@@H]1O,G,PRK,40 µg/mL
O=C(O)CP(=O)(O)O,G,HEL,7.4 µg/mL
Nc1ncnc2c1ccn2[C@@H]1O[C@H](CO)C[C@H]1O,G,PRK,≥10 µg/mL
O=c1[nH]c(=O)n([C@H]2C[C@H](O)[C@@H](CO)O2)cc1CCCl,K979,VERO,>102 µM
Nc1nc(N)c2ncn(CCOCP(=O)(O)O)c2n1,G,HEL,0.8 µg/mL
O=C(O)CP(=O)(O)O,TK-,VERO,>71.4 µM
Nc1ncnc2c1ccn2[C@H]1C[C@@H](O)[C@@H](CO)O1,G,PRK,70 µg/mL
O=c1ccn([C@H]2C[C@H](O)[C@@H](CO)O2)c(=O)[nH]1,G 196 LYONS,E6SM,>200 µM
Nc1nc(=O)n([C@@H]2O[C@H](CO)[C@@H](O)[C@@H]2F)cc1I,HS-47,HEL,0.11 µg/mL
Nc1nccc2c1ncn2[C@@H]1C[C@H](CO)[C@@H](O)[C@H]1O,LYONS G 196,PRK,≥300 µg/mL
O=C(O)P(=O)(O)O,ACV-resistant,HEL,27 µg/mL
Nc1ccn(C[C@@H](CO)OCP(=O)(O)O)c(=O)n1,HS-44,HEL,0.27 µg/mL

2 of the rows above, restated:

Nc1nc(N)c2ncn(CCOCP(=O)(O)O)c2n1 ; strain: HS-44 ; cells: HEL ; result: 7.3 µg/mL
Nc1nc(=O)n([C@@H]2O[C@H](CO)[C@@H](O)[C@@H]2F)cc1I ; strain: HS-47 ; cells: HEL ; result: 0.11 µg/mL